Measured values from several laboratories, pooled; numbers as filed in NIAID ChemDB.

Shared fields: tests in culture; organism: Hepatitis B virus; method: PCR; read-out: EC50

Conditions beyond the fields shown may differ between rows. ECn: concentration that inhibits the pathogen or its effect by n%. a–b is a range or a potency band.

Cn1nc2cc(NS(=O)(=O)c3cnn(C4CNC4)c3)ccc2c1C(=O)Nc1ccc(F)c(Cl)c1 ; cell line: HepAD38 ; value: 100–1000 µM
CNC(=O)C(=O)N1CC[C@@H](NS(=O)(=O)c2c(Cl)c(C(=O)Nc3cc(F)c(F)c(F)c3)n3c2CCC3)C1 ; cell line: HepAD38 cells ; value: 0.1–0.3 µM
Cc1cc(NC(=O)c2c3c(cn2C)S(=O)(=O)N[C@H]2CN(C(=O)C(=O)N[C@H](C)C(F)(F)F)C[C@H]2CO3)ccc1F ; cell line: HepG2 ; changes: T33P ; value: 0.00168 µM
Cn1nc2cc(NS(=O)(=O)c3ccccc3)ccc2c1C(=O)Nc1ccc(F)c(Cl)c1 ; cell line: HepAD38 ; value: <100 µM
O=C(c1ccc(Br)cc1)N1CCc2c(n3nccc3n(-c3ccccc3)c2=O)C1 ; cell line: HepG2.117 ; setting: 3 d ; value: >5 µM
COc1ccc([C@@H](C)NC(=O)c2c3n(c(=O)n2-c2ccc(OC4CC4)cc2)C[C@H](C)N(C(=O)c2ccc(Br)c(Cl)c2)C3)cc1 ; cell line: HepG2.117 ; value: <0.1 µM
CNS(=O)(=O)N1CC[C@@H](NS(=O)(=O)c2cn(C)c(C(=O)Nc3ccc(F)c(Cl)c3F)c2F)C1 ; cell line: HepAD38 cells ; value: <0.1 µM
C[C@@H](NC(=O)c1c2n(c(=O)n1-c1ccc(OC3CC3)cc1)CCN(C(=O)c1ccc(Br)c(Cl)c1)C2)c1ccc(OCC#N)cc1F ; cell line: HepG2.117 ; value: 0.1–0.5 µM
Cn1cc2c(c1C(=O)Nc1cc(F)c(F)c(F)c1)OC[C@@H]1CN(C(=O)C(=O)NC3(C)COC3)C[C@@H]1NS2(=O)=O ; cell line: HepAD38 ; value: <0.5 µM
COc1ccc(CN2CCn3c(c4n(c3=O)CCN(C(=O)c3ccc(Br)cc3)C4)C2=O)cc1 ; cell line: HepG2.2.15 ; value: >5 µM
CCOC(=O)C1=C(CN2CC(F)(F)[C@H]3[C@@H]2CCN3C[C@@](C)(O)C(=O)O)NC(c2nc(C)cs2)=N[C@H]1c1cccc(F)c1C ; cell line: HepG2.2.15 ; value: 0.009 µM
Cc1cc(NC(=O)c2c3c(cn2C)S(=O)(=O)N[C@H]2CN(C(=O)C(=O)NC(C)(C)C(F)(F)F)C[C@H]2CO3)ccc1F ; cell line: HepAD38 ; value: <0.5 µM
Cc1ccc(COC(=O)Nc2ccc3nn(C)c(C(=O)Nc4ccc(F)c(Cl)c4)c3c2)cc1 ; cell line: HepAD38 ; value: >1000 µM
COC(=O)C1=C(CN2CC(F)(F)[C@H]3[C@@H]2CCN3C[C@@H](O)C(C)(C)C(=O)O)NC(c2nccs2)=N[C@H]1c1cccc(F)c1F ; cell line: HepG2.2.15 ; value: 0.035 µM
C[C@H](NC(=O)c1c2n(c(=O)n1C1CC1)CCN(C(=O)c1ccc(Br)c(Cl)c1)C2)c1ccccc1 ; cell line: HepG2.117 ; value: 0.5–5 µM
COc1ccc(-n2c(=O)c3c(n4ncc(NC(=O)c5ccccc5)c24)CN(C(=O)c2ccc(Br)c(Cl)c2)CC3)cc1 ; cell line: HepG2.117 ; setting: 3 d ; value: 0.1–0.5 µM
O=C(NCc1ccccc1-c1nnco1)c1c2n(c(=O)n1-c1ccc(OC3CC3)cc1)CCN(C(=O)c1ccc(Br)c(Cl)c1)C2 ; cell line: HepG2.117 ; value: <0.1 µM
Cn1nc2cc(NS(=O)(=O)c3ccccn3)ccc2c1C(=O)Nc1ccc(F)c(Cl)c1 ; cell line: HepAD38 ; value: 100–1000 µM
Cc1cc(NC(=O)c2c3c(cn2C)S(=O)(=O)NC2CCN(C(=O)C(=O)NC(C)(C)C(F)(F)F)CC2CO3)ccc1F ; cell line: HepAD38 ; value: <0.5 µM
Cn1cc(OC(=O)Nc2ccc3c(C(=O)Nc4ccc(F)c(Cl)c4)n(C)nc3c2)cn1 ; cell line: HepAD38 ; value: >1000 µM
N#Cc1cc(C(=O)N2CCc3c(n4ncc(Cc5ccccc5)c4n(-c4ccc(C(=O)NC5CC5)cc4)c3=O)C2)ccc1Br ; cell line: HepG2.117 ; setting: 3 d ; value: >5 µM
C#CCNC(=O)C(=O)c1cc(C(=O)Nc2ccc(F)c(C#N)c2)n(C)c1C ; cell line: HepG2.2.15 ; value: 0.01–0.099 µM
CCNC(=O)C(=O)N1CCC(NS(=O)(=O)c2cn(C)c(C(=O)Nc3cc(F)c(F)c(F)c3)c2F)CC12CC2 ; cell line: HepAD38 cells ; value: <0.1 µM
CCOC(=O)C1=C(CN2CC(F)(F)[C@@H]3[C@H]2CON3C[C@H](OC)C(C)(C)C(=O)O)NC(c2nc(C)cs2)=N[C@H]1c1cccc(F)c1C ; cell line: HepG2.2.15 ; value: 0.012 µM
Cc1c(C(=O)C(=O)NC(C)(C)c2cncnc2)c(C)n(C)c1C(=O)Nc1ccc(F)c(C#N)c1 ; cell line: HepG2.2.15 ; value: 0.001–0.0099 µM
CNC(=O)c1ccc(-n2c(=O)c3c(n4ncc(Nc5ccccc5)c24)CN(C(=O)c2ccc(Cl)c(Cl)c2)CC3)cc1 ; cell line: HepG2.117 ; setting: 3 d ; value: <0.1 µM
C[C@@H](NC(=O)C(=O)N1C[C@H]2COc3c(cn(C)c3C(=O)Nc3ccc(F)c(C(F)F)c3)S(=O)(=O)N[C@H]2C1)C(F)(F)F ; cell line: HepAD38 ; value: <0.5 µM
CCOC(=O)C1=C(CN2CC(F)(F)[C@@H]3[C@H]2CON3CC[C@](C)(OC)C(=O)O)NC(c2nccs2)=N[C@H]1c1ccc(F)c(F)c1Cl ; cell line: HepG2.2.15 ; value: 0.0345 µM
CCNC(=O)C(=O)N1CCC(NS(=O)(=O)c2cn(CC(F)F)c(C(=O)Nc3ccc(F)c(F)c3)c2F)CC1 ; cell line: HepAD38 cells ; value: <0.1 µM
Cc1cc(NC(=O)c2c3c(c(C)n2C)S(=O)(=O)N[C@H]2CN(C(=O)C(=O)N[C@H](C)C(F)(F)F)C[C@H]2CO3)ccc1F ; cell line: HepAD38 ; value: <0.5 µM
O=C(c1ccc(Cl)c(Cl)c1)N1CCc2c(n3ncc(NCc4ccccc4)c3n(-c3ccccc3)c2=O)C1 ; cell line: HepG2.117 ; setting: 3 d ; value: 0.5–5 µM
C#CC1(NC(=O)C(=O)c2c(C)c(C(=O)Nc3ccc(F)c(F)c3)n(C)c2C)COC1 ; cell line: HepG2.2.15 ; value: 0.001–0.0099 µM
Cn1nc2cc(NS(=O)(=O)c3cnn(-c4cc(=O)cc[nH]4)c3)ccc2c1C(=O)Nc1ccc(F)c(Cl)c1 ; cell line: HepAD38 ; value: 100–1000 µM
CCOC(=O)C1=C(CN2CC(F)(F)[C@@H]3[C@H]2CON3C[C@H](OC(F)F)C(C)(C)C(=O)O)NC(c2nccs2)=N[C@H]1c1cccc(F)c1C ; cell line: HepG2.2.15 ; value: 0.023 µM
C[C@H](Oc1ccc([C@H](C)NC(=O)c2c3n(c(=O)n2-c2ccc(OC4CC4)cc2)CCN(C(=O)c2ccc(Br)c(Cl)c2)C3)c(F)c1)C(N)=O ; cell line: HepG2.117 ; value: <0.1 µM
CNC(=O)c1ccc(-n2c(=O)c3c(n4ncc(Cc5ccc(OC)cc5F)c24)CN(C(=O)c2ccc(Br)c(C#N)c2)CC3)cc1 ; cell line: HepG2.117 ; setting: 3 d ; value: 0.1–0.5 µM
C#C[C@H](NC(=O)C(=O)c1c(C)c(C(=O)Nc2ccc(F)c(C#N)c2)n(C)c1C)C1CC1 ; cell line: HepG2.2.15 ; value: <0.001 µM
CCOC(=O)C1=C(CN2CC(F)(F)[C@@H]3[C@H]2CON3C[C@@H](F)C(C)(C)C(=O)O)NC(c2nccs2)=N[C@H]1c1ccc(F)c(F)c1C ; cell line: HepG2.2.15 ; value: 0.003 µM
Cc1c(C(=O)C(=O)NC(C)(C)c2cn(C)cn2)c(C)n(C)c1C(=O)Nc1ccc(F)c(C(F)(F)F)c1 ; cell line: HepG2.2.15 ; value: 0.1–0.999 µM
Cn1nc2cc(NS(=O)(=O)N3CCOCC3)ccc2c1C(=O)Nc1ccc(F)c(Cl)c1 ; cell line: HepAD38 ; value: 100–1000 µM
COC(=O)C1=C(CN2CC(F)(F)[C@H]3[C@@H]2CCN3CC[C@@](C)(O)C(=O)O)NC(c2nccs2)=N[C@H]1c1ccc(F)c(F)c1Cl ; cell line: HepG2.2.15 ; value: 0.038 µM
C#CC1(NC(=O)C(=O)c2c(C)c(C(=O)Nc3ccc(F)c(C(F)(F)F)c3)n(C)c2C)CC1O ; cell line: HepG2.2.15 ; value: <0.001 µM
CN(c1cnn(C)c1)S(=O)(=O)Nc1ccc2c(C(=O)Nc3ccc(F)c(Cl)c3)n(C)nc2c1 ; cell line: HepAD38 ; value: 100–1000 µM
C#CCNC(=O)C(=O)c1cc(C(=O)Nc2ccc(F)c(C#N)c2)n(C)c1 ; cell line: HepG2.2.15 ; value: >1 µM
CCOC(=O)Cc1ccc(CNC(=O)c2c3n(c(=O)n2-c2ccc(OC)cc2)CCN(C(=O)c2ccc(Br)c(Cl)c2)C3)cc1 ; cell line: HepG2.117 ; value: >5 µM
C#C[C@](CO)(NC(=O)C(=O)c1c(C)c(C(=O)Nc2ccc(F)c(C(F)(F)F)c2)n(C)c1C)C1CC1 ; cell line: HepG2.2.15 ; value: <0.001 µM
CCOC(=O)C1=C(CN2CC(F)(F)[C@@H]3[C@H]2CON3C[C@@H](F)C(C)(C)C(=O)O)NC(c2nccs2)=N[C@H]1c1cccc(F)c1C ; cell line: HepG2.2.15 ; value: 0.011 µM